Results deposited as PubChem BioAssay AID1224833 (University of Georgia, 2016)
Assay: 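Human genes whose knock-down alters rotavirus replication in monkey cells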 (primary screen). System: monkey MA104 kidney cells. Knock-down reagent: siRNA pool against human genes, 50 nM. Time to read-out: 48 h knock-down before infection; read 24 h after infection. Challenge: infection with rotavirus strain RV3 two days after transfection; infectious dose for this stage not given. Measurement: 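z-score of rotavirus antigen signal per well, from a fluorescent immunoassay, relative to non-targeting control wells on the same plate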. Reading the numbers: z-score vs non-targeting control: higher = more rotavirus replication than with non-targeting control. Call rule: In these data the active calls have z-score vs non-targeting control at about -1 or lower, or at about 1 or higher. Meaning of the calls: active = z-score beyond 1 either way; inactive = z-score within 1 of zero.
In all, the deposit lists about 12,000 reagents; shown is a random part of them. About 5,600 of them (46%) count as active. 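Active calls cover z-scores past 1 in both directions, so they include lowered as well as raised rotavirus replication.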

gene,PubChem SID,z-score vs non-targeting control,Outcome
KIF9 (kinesin family member 9),SID329580586,-0.354,inactive
DEPDC4 (DEP domain containing 4),SID329582408,-1.46,active
ARL8A (ARF like GTPase 8A),SID329582586,2.84,active
IER3 (immediate early response 3),SID329576327,1.27,active
RIMS3 (regulating synaptic membrane exocytosis 3),SID329576792,-0.537,inactive
ESYT1 (extended synaptotagmin 1),SID329577947,-1.21,active
LRRC28 (leucine rich repeat containing 28),SID329582466,0.216,inactive
DARS1 (aspartyl-tRNA synthetase 1),SID329573362,1.6,active
SLC16A11,SID329583219,-0.682,inactive
DAB1 (DAB adaptor protein 1),SID329573356,-2.6,active
DDI1 (DDI proteasomal shuttling factor 1),SID329584545,-0.333,inactive
DONSON (DNA replication fork stabilization factor DONSON),SID329578749,-2.49,active
"GREM2 (gremlin 2, DAN family BMP antagonist)",SID329580622,-0.659,inactive
DPPA3 (developmental pluripotency associated 3),SID329584211,-0.841,inactive
FEM1B (fem-1 homolog B),SID329576971,-1.52,active
"RAB21 (RAB21, member RAS oncogene family)",SID329577762,-0.837,inactive
CLEC18A (C-type lectin domain family 18 member A),SID329584171,-1.43,active
TMPRSS11D (transmembrane serine protease 11D),SID329576580,1.48,active
OR2C3 (olfactory receptor family 2 subfamily C member 3),SID329581298,-0.531,inactive
ZNF317 (zinc finger protein 317),SID329580351,-1.27,active
NEDD9,SID329574591,-1.67,active
NUP107 (nucleoporin 107),SID329580167,2.24,active
RWDD4 (RWD domain containing 4),SID329583443,-0.542,inactive
TMEM258 (transmembrane protein 258),SID329572971,0.994,inactive
AKR1C2 (aldo-keto reductase family 1 member C2),SID329573377,1.4,active
SCARA3 (scavenger receptor class A member 3),SID329579067,-2.32,active
IFITM1 (interferon induced transmembrane protein 1),SID329576150,0.603,inactive
DBNDD1 (dysbindin domain containing 1),SID329580800,0.476,inactive
TNP2 (transition protein 2),SID329575690,0.572,inactive
CA3 (carbonic anhydrase 3),SID329572982,-2,active
FOXN3 (forkhead box N3),SID329573158,-2.62,active
ZNF595 (zinc finger protein 595),SID329583073,-0.981,inactive
GAL3ST4 (galactose-3-O-sulfotransferase 4),SID329580958,0.752,inactive
NLGN2 (neuroligin 2),SID329580286,-1.19,active
DRC8 (dynein regulatory complex subunit 8),SID329581580,-0.581,inactive
CRADD (CARD and death domain containing adaptor protein),SID329576265,-0.894,inactive
"MUSTN1 (musculoskeletal, embryonic nuclear protein 1)",SID329584351,-1.28,active
ANKRD44 (ankyrin repeat domain 44),SID329582008,1.27,active
ECSIT (ECSIT signaling integrator),SID329579006,-1.13,active
ARHGEF7 (Rho guanine nucleotide exchange factor 7),SID329576329,1.08,active
PPP6R3 (protein phosphatase 6 regulatory subunit 3),SID329579681,0.256,inactive
SLF1 (SMC5/6 complex localization factor 1),SID329581560,-0.606,inactive
EXT1 (exostosin glycosyltransferase 1),SID329573584,0.549,inactive
BGLAP (bone gamma-carboxyglutamate protein),SID329572915,-0.794,inactive
PARD6G (par-6 family cell polarity regulator gamma),SID329581656,-0.722,inactive
TMEM169 (transmembrane protein 169),SID329582077,-1.03,active
CLASP2 (cytoplasmic linker associated protein 2),SID329577819,0.342,inactive
NFE2L2 (NFE2 like bZIP transcription factor 2),SID329574611,-1.57,active
TMEM125 (transmembrane protein 125),SID329582595,0.517,inactive
UFM1 (ubiquitin fold modifier 1),SID329579128,0.616,inactive
ENOX1 (ecto-NOX disulfide-thiol exchanger 1),SID329579549,0.517,inactive
SPAG7 (sperm associated antigen 7),SID329576653,0.198,inactive
PTTG1,SID329576492,-1.01,active
CBX3 (chromobox 3),SID329577646,0.758,inactive
EXT2 (exostosin glycosyltransferase 2),SID329573585,-1.45,active
TPSG1 (tryptase gamma 1),SID329578182,1.06,active
OSBPL11 (oxysterol binding protein like 11),SID329582241,0.34,inactive
OSBPL6 (oxysterol binding protein like 6),SID329582236,-0.0008,inactive
ARF5 (ARF GTPase 5),SID329572807,-1.16,active
BAMBI (BMP and activin membrane bound inhibitor),SID329578170,-0.151,inactive
NKX2-5 (NK2 homeobox 5),SID329573303,-2.09,active
LMNB1 (lamin B1),SID329574311,-1.75,active
PCDH7 (protocadherin 7),SID329574761,-0.688,inactive
WWP1 (WW domain containing E3 ubiquitin protein ligase 1),SID329577509,-1.08,active
TDRD12 (tudor domain containing 12),SID329582015,-0.722,inactive

19 successive entries from above, quoted:
gene,PubChem SID,z-score vs non-targeting control,Outcome
NUP107 (nucleoporin 107),SID329580167,2.24,active
RWDD4 (RWD domain containing 4),SID329583443,-0.542,inactive
TMEM258 (transmembrane protein 258),SID329572971,0.994,inactive
AKR1C2 (aldo-keto reductase family 1 member C2),SID329573377,1.4,active
SCARA3 (scavenger receptor class A member 3),SID329579067,-2.32,active
IFITM1 (interferon induced transmembrane protein 1),SID329576150,0.603,inactive
DBNDD1 (dysbindin domain containing 1),SID329580800,0.476,inactive
TNP2 (transition protein 2),SID329575690,0.572,inactive
CA3 (carbonic anhydrase 3),SID329572982,-2,active
FOXN3 (forkhead box N3),SID329573158,-2.62,active
ZNF595 (zinc finger protein 595),SID329583073,-0.981,inactive
GAL3ST4 (galactose-3-O-sulfotransferase 4),SID329580958,0.752,inactive
NLGN2 (neuroligin 2),SID329580286,-1.19,active
DRC8 (dynein regulatory complex subunit 8),SID329581580,-0.581,inactive
CRADD (CARD and death domain containing adaptor protein),SID329576265,-0.894,inactive
"MUSTN1 (musculoskeletal, embryonic nuclear protein 1)",SID329584351,-1.28,active
ANKRD44 (ankyrin repeat domain 44),SID329582008,1.27,active
ECSIT (ECSIT signaling integrator),SID329579006,-1.13,active
ARHGEF7 (Rho guanine nucleotide exchange factor 7),SID329576329,1.08,active

Continued:
gene,PubChem SID,z-score vs non-targeting control,Outcome
ACTRT2 (actin related protein T2),SID329582798,-0.176,inactive
JRK (Jrk helix-turn-helix protein),SID329576201,0.125,inactive
SNRNP25 (small nuclear ribonucleoprotein U11/U12 subunit 25),SID329580918,-0.427,inactive
PHOX2B (paired like homeobox 2B),SID329576352,-0.664,inactive
"ST8SIA4 (ST8 alpha-N-acetyl-neuraminide alpha-2,8-sialyltransferase 4)",SID329575965,-1.09,active
COL5A1 (collagen type V alpha 1 chain),SID329573204,1.42,active
"HEPN1 (hepatocellular carcinoma, down-regulated 1)",SID329584678,1.34,active
DUSP29 (dual specificity phosphatase 29),SID329584025,-1.17,active
PNPO (pyridoxamine 5'-phosphate oxidase),SID329579606,0.891,inactive
RPP21 (ribonuclease P subunit p21),SID329581066,-2.13,active
RASD1 (ras related dexamethasone induced 1),SID329579166,-1.95,active
DISP1 (dispatched RND transporter family member 1),SID329581805,0.597,inactive
FANCA (FA complementation group A),SID329573599,0.588,inactive
CST1 (cystatin SN),SID329573292,0.864,inactive
CPNE8 (copine 8),SID329582869,-1.06,active
DDX55 (DEAD-box helicase 55),SID329580353,0.511,inactive
CNDP2 (carnosine dipeptidase 2),SID329579848,0.769,inactive
"TNNI1 (troponin I1, slow skeletal type)",SID329575684,-1.31,active
KAT7 (lysine acetyltransferase 7),SID329577558,0.53,inactive
USO1 (USO1 vesicle transport factor),SID329576195,-0.589,inactive
RBM39 (RNA binding motif protein 39),SID329576673,-2.52,active
POPDC1 (popeye domain cAMP effector 1),SID329577564,0.712,inactive
PLN (phospholamban),SID329574865,-0.634,inactive
GSG1L (GSG1 like),SID329582909,-0.751,inactive
FMR1 (fragile X messenger ribonucleoprotein 1),SID329573677,-1.48,active
NAPRT (nicotinate phosphoribosyltransferase),SID329582098,1.92,active
RALY (RALY heterogeneous nuclear ribonucleoprotein),SID329577720,-0.484,inactive
RPL19 (ribosomal protein L19),SID329575163,-1.89,active
ZNF92 (zinc finger protein 92),SID329583290,1.64,active
"SEC31A (SEC31 homolog A, COPII component)",SID329577693,-0.0093,inactive
SLC15A2,SID329575372,0.62,inactive
CDKAL1 (CDKAL1 threonylcarbamoyladenosine tRNA methylthiotransferase),SID329579456,-0.122,inactive
OR5P3 (olfactory receptor family 5 subfamily P member 3),SID329582397,-1.17,active
ZNF18 (zinc finger protein 18),SID329575859,2.21,active
ATF1 (activating transcription factor 1),SID329572844,0.925,inactive
"IRAG2 (inositol 1,4,5-triphosphate receptor associated 2)",SID329574325,-1.74,active
MRPL42 (mitochondrial ribosomal protein L42),SID329578620,-0.382,inactive
BPY2B (basic charge Y-linked 2B),SID329584617,0.368,inactive
C3 (complement C3),SID329572956,-1.61,active
AHR (aryl hydrocarbon receptor),SID329572730,-1.78,active
CHP1 (calcineurin like EF-hand protein 1),SID329577621,0.143,inactive
"RAN (RAN, member RAS oncogene family)",SID329575067,0.998,inactive
PDSS1 (decaprenyl diphosphate synthase subunit 1),SID329578079,-1.17,active
WAPL (WAPL cohesin release factor),SID329577789,0.221,inactive
PJVK (pejvakin),SID329584645,-1.29,active
ANKRD50 (ankyrin repeat domain 50),SID329580196,0.0321,inactive
OR2A7 (olfactory receptor family 2 subfamily A member 7),SID329584495,-0.338,inactive
"RAB9B (RAB9B, member RAS oncogene family)",SID329578969,0.708,inactive
"ZFPM1 (zinc finger protein, FOG family member 1)",SID329583211,-1.21,active
TLDC2 (TBC/LysM-associated domain containing 2),SID329582815,-1.02,active
RGS21 (regulator of G protein signaling 21),SID329584553,0.129,inactive
FPR1 (formyl peptide receptor 1),SID329573685,-1.32,active
TBC1D14 (TBC1 domain family member 14),SID329580276,-0.534,inactive
CLUH (CLUH binding protein of NUMT mRNA),SID329577914,-2.54,active
PRUNE2 (prune homolog 2 with BCH domain),SID329583155,-0.256,inactive
RTN3 (reticulon 3),SID329577093,-1.03,active
ISG20 (interferon stimulated exonuclease gene 20),SID329574184,-1.53,active
DNAJC6 (DnaJ heat shock protein family (Hsp40) member C6),SID329576822,-0.57,inactive
DLEU7 (deleted in lymphocytic leukemia 7),SID329583552,-0.0216,inactive
NPPB (natriuretic peptide B),SID329574661,-2.24,active
"SSU72 (SSU72 homolog, RNA polymerase II CTD phosphatase)",SID329578660,0.236,inactive
C5orf15 (chromosome 5 open reading frame 15),SID329580108,-1.28,active
FAM174C (family with sequence similarity 174 member C),SID329579519,0.0785,inactive
SF3B4 (splicing factor 3b subunit 4),SID329577064,0.463,inactive
PIK3R6 (phosphoinositide-3-kinase regulatory subunit 6),SID329582919,-1.5,active
NKX2-2 (NK2 homeobox 2),SID329574637,-0.823,inactive
TH (tyrosine hydroxylase),SID329575632,-1,inactive
MT1H (metallothionein 1H),SID329574498,-1.18,active
TOP1 (DNA topoisomerase I),SID329575692,0.866,inactive
OR6V1 (olfactory receptor family 6 subfamily V member 1),SID329584147,-0.166,inactive
IL17F (interleukin 17F),SID329582164,-0.596,inactive
ITGAM (integrin subunit alpha M),SID329574189,-0.477,inactive
ITIH4 (inter-alpha-trypsin inhibitor heavy chain 4),SID329574201,0.0383,inactive
"TNNI2 (troponin I2, fast skeletal type)",SID329575685,-2.25,active
ALDH1B1 (aldehyde dehydrogenase 1 family member B1),SID329572741,0.647,inactive
